A mixed list of measured activities; the numbers were collected in NIAID ChemDB.

Common to all: growth or infection tests; agent: HIV-1; method: p24; measure: EC50

Conditions beyond the fields shown may differ between rows. a–b is a range or a potency band. Blank or dashed fields: not listed here. ECn is the concentration giving n% inhibition of infection, replication or growth.

| structure | strain | changes | cell line | setting | value |
|---|---|---|---|---|---|
| CC(C)CN(C[C@@H](O)[C@H](Cc1ccccc1)NC(=O)[C@H](CC(N)=O)NC(=O)c1ccc2ccccc2n1)C(=O)NC(C)(C)C | NL4-3 | PR-L63P V82T I84V | MT-4 | - | <1.5 µM |
| COC(=O)[C@H](C)NP(=O)(OC[C@H]1O[C@@H](N2C(=O)NC(=O)C(C)(Br)C2OC)C[C@@H]1N=[N+]=[N-])Oc1ccc(Br)cc1 | - | - | PBMC | - | 0.005 µM |
| CC(C)(C)NC(=O)[C@@H]1C[C@@H]2CCCC[C@@H]2CN1C[C@@H](O)[C@H](Cc1ccccc1)NC(=O)[C@H](CC(N)=O)NC(=O)c1ccc2ccccc2n1 | ESP2-0 | - | PBMC | - | 0.005 µM |
| CC(C)(C)NC(=O)[C@@H]1C[C@@H]2CCCC[C@@H]2CN1C[C@@H](O)[C@H](Cc1ccccc1)NC(=O)[C@H](CC(N)=O)NC(=O)c1ccc2ccccc2n1 | HXB2 | PR-G48V L90M | PBMC | - | 0.12 µM |
| CCc1cc(NCc2nc3c(Cl)ccc(Cl)c3o2)c(=O)[nH]c1C | Clinical isolate (RT M41L T215Y/F) | RT-M41L T215Y/F | PBMC | - | <0.05 µM |
| CN(C)C1(c2nc(C(=O)NCc3ccc(F)cc3)c(O)c(=O)[nH]2)CCC1 | IIIB | - | MT-4 | 50% human serum | <0.25 µM |
| CCc1cc(NCc2nc3c(C)ccc(C)c3o2)c(=O)[nH]c1C | IIIB | - | MT-4 | - | <0.025 µM |
| COC(=O)[C@H](C)NP(=O)(OC[C@@H]1CC[C@H](N2C(=O)NC(=O)C(C)(Br)C2OC)O1)Oc1ccccc1 | - | - | PBMC | - | 3.322 µM |
| Nc1ccn([C@H]2CC[C@@H](CO)O2)c(=O)n1 | HXB2D (RT-K65R) | RT-K65R | H9 | - | 5.2 µM |
| CC(C)(C)NC(=O)[C@@H]1[C@H]2CCCC[C@H]2CN1C(=O)[C@@H](O)[C@H](Cc1ccccc1)NC(=O)[C@H](CC(N)=O)NC(=O)COc1cccc2ccccc12 | RF | - | MT-2 | - | 0.018 µM |
| OCCc1ccc(O)c(O)c1 | IIIB | - | H9 | - | 0.068 µM |
| CC(=O)N[C@H]1[C@H]([C@H](OS(=O)(=O)O)[C@@H](COS(=O)(=O)O)OS(=O)(=O)O)O[C@@](OCCCCCCCCCCCCCCCC(=O)O)(C(=O)O)C[C@@H]1OS(=O)(=O)O | IIIB | - | H9 | - | 139 µM |
| Cc1c(O)cccc1C(=O)N[C@@H](CSc1ccccc1)[C@H](O)CN1C[C@H]2CCCC[C@H]2C[C@H]1C(=O)NC(C)(C)C | IIIB | - | PBMC | - | 0.0491 µM |
| CN=C1CN=C(c2ccc[nH]2)c2cc(Cl)ccc2N1 | N1T-E | - | CEM/1(N1T-E) + CEM | chronic infection | 0.01–0.1 µM |
| CC(=O)SCCOP(=O)(OCCSC(C)=O)OC[C@H]1O[C@@H](n2cc(C)c(=O)[nH]c2=O)C[C@@H]1N=[N+]=[N-] | LAV1-BRU | - | MOLT-4/8 | - | 0.038 µM |
| CCCCCCCCCCCCCCOC[C@H](CO[C@]1(C(=O)O)C[C@H](OS(=O)(=O)O)[C@@H](NC(C)=O)[C@H]([C@H](OS(=O)(=O)O)[C@@H](COS(=O)(=O)O)OS(=O)(=O)O)O1)OCCCCCCCCCCCCCC | IIIB | - | H9 | - | 9 µM |
| S=C(NCCc1cccs1)Nc1ccc(Br)cn1 | C140 Clinical isolate NRTI-resistant | RT-M41L M184V T215Y | PBMC | - | 0.019 µM |
| O=C(NCc1ccc(F)cc1)c1nc(C(c2ccccc2)N2CCOCC2)[nH]c(=O)c1O | IIIB | - | MT-4 | 10% FBS | <0.63 µM |
| O=C1N(Cc2ccc(CO)cc2)[C@H](Cc2ccccc2)[C@H](O)[C@@H](O)[C@@H](Cc2ccccc2)N1Cc1ccc(CO)cc1 | NL4-3 | PR-M46I | MT-4 | - | <0.2 µM |
| Cc1cccc(C)c1OCC(=O)N[C@@H](Cc1ccccc1)[C@H](O)CN1CC[C@@H](Sc2ccncc2)C[C@H]1C(=O)NC(C)(C)C | BILA1906-resistant (PR V32I A71V) | PR-V32I A71V | C8166 | - | 0.008 µM |
| CN(C)C1(c2nc(C(=O)NCc3ccc(F)cc3)c(O)c(=O)[nH]2)CCOCC1 | IIIB | - | MT-4 | 50% human serum | <0.19 µM |
| CCc1cc(NCc2nc3ccccc3o2)c(=O)[nH]c1C | A17 | - | MT-4 | - | <100 µM |
| CCCc1c([Se]c2ccccc2)n(COCc2ccccc2)c(=O)[nH]c1=O | Cat #3 strain | - | MT-2 | - | 0.025 µM |
| Cc1cn([C@H]2C[C@H](N=[N+]=[N-])[C@@H](CO)O2)c(=O)[nH]c1=O | AZT-resistant | - | PBL | - | 1.1 µM |
| CC(C)(C)NC(=O)[C@@H]1C[C@@H]2CCCC[C@@H]2N1C(=O)[C@@H](O)[C@H](Cc1ccccc1)NC(=O)[C@H](CC(N)=O)NC(=O)c1ccc2ccccc2n1 | RF | - | MT-2 | - | 0.007–0.026 µM |
| COc1cc([C@H]2OC[C@H]3[C@@H]2CO[C@@H]3c2ccc3c(c2)OCO3)cc(OC)c1OC | IIIB | - | H9 | - | <10.6 µM |
| CCCCCCCCCCCCCCCCCCCCCCOCC(C)(COCCCCCCCCCCCCCCCCCCCCCC)CO[C@]1(C(=O)O)C[C@H](OS(=O)(=O)O)[C@@H](NC(C)=O)[C@H]([C@H](OS(=O)(=O)O)[C@@H](COS(=O)(=O)O)OS(=O)(=O)O)O1 | IIIB | - | H9 | - | 1 µM |
| CC(C)(C)NC(=O)[C@@H]1CCCN1C(=O)[C@@H](O)[C@H](Cc1ccccc1)NC(=O)[C@H](CC(N)=O)NC(=O)COc1cccc2ccccc12 | RF | - | MT-2 | - | 0.09–0.103 µM |
| CCCCCCCCCCCCCCCCCCCCCCOC[C@H](CO[C@]1(C(=O)O)C[C@H](OS(=O)(=O)O)[C@@H](NC(C)=O)[C@H]([C@H](OS(=O)(=O)O)[C@@H](COS(=O)(=O)O)OS(=O)(=O)O)O1)OCCCCCCCCCCCCCCCCCCCCCC | IIIB | - | H9 | - | 1 µM |
| CC(=O)c1ccccc1NC(C(N)=O)c1c(Cl)cccc1Cl | DLV-resistant MF (RT-P236L) | RT-P236L | MT-4 | - | <0.08 µM |
| COC(=O)[C@H](C)NP(=O)(OC[C@H]1O[C@@H](N2C(=O)NC(=O)C(C)(Br)C2OC)C[C@@H]1N=[N+]=[N-])Oc1ccc(F)cc1 | - | - | PBMC | - | 0.07 µM |
| CCN1CCCCC1c1nc(C(=O)NCc2ccc(F)cc2)c(O)c(=O)[nH]1 | IIIB | - | MT-4 | 10% FBS | <0.25 µM |
| COc1ccc(C[C@H]2COC(=O)[C@@H]2Cc2ccc(O[C@@H]3O[C@H](CO)[C@@H](O)[C@H](O)[C@H]3O)c(OC)c2)cc1OC | IIIB | - | H9 | - | <5 µM |
| CNC(=O)c1cc(F)ccc1CNC(=O)c1nc(N2CCCCS2(=O)=O)c2cccnc2c1O | IIIB | - | MT-4 | - | <0.015 µM |
| O=c1[nH]cnc2c1ncn2[C@H]1CC[C@@H](CO)O1 | A17 | - | MT-4 | - | <6.25 µM |
| CC(C)Nc1cccnc1N1CCN(C(=O)c2cc3cc(NS(C)(=O)=O)ccc3[nH]2)CC1 | RT-M184V | RT-E89G | PBMC | - | 0.008 µM |
| COC(=O)[C@H](C)NP(=O)(OC[C@H]1O[C@@H](n2cc(C)c(=O)[nH]c2=O)C[C@@H]1N=[N+]=[N-])Oc1ccc(Br)cc1 | - | - | PBMC | - | 0.006 µM |
| Cc1cn([C@H]2C[C@H](N=[N+]=[N-])[C@@H](CO)O2)c(=O)[nH]c1=O | JR-FL | - | Macrophage | - | 0.164 µg/mL |
| Nc1ccn([C@H]2CC[C@@H](CO)O2)c(=O)n1 | RF | - | MOLT-4/8 | - | 0.35 µM |
| O=C(O)[C@H]1O[C@@H](Oc2cc3oc(-c4ccccc4)cc(=O)c3c(O)c2O)[C@H](O)[C@@H](O)[C@@H]1O | - | - | PBMC | - | 32 µM |
| CN(C[C@@H](CCN1CCC2(CC1)CS(=O)c1ccccc12)c1cccc(Cl)c1)S(=O)(=O)c1ccccc1 | YU-2 (M-tropic) | - | PBMC | - | <12.5 µM |
| Cc1cn([C@H]2C[C@H](N=[N+]=[N-])[C@@H](CO)O2)c(=O)[nH]c1=O | IIIB | - | C8166 | - | <0.04 µg/mL |
| CC(C)Nc1cccnc1N1CCN(C(=O)c2cc3cc(NS(C)(=O)=O)ccc3[nH]2)CC1 | IIIB | - | H9 | - | 0.01 µM |
| O=C(NCc1ccc(F)cc1)c1nc(C(c2ccccc2)N2CCCCC2)[nH]c(=O)c1O | IIIB | - | MT-4 | 10% FBS | <0.31 µM |
| Nc1ncnc2c1ncn2CCOCP(=O)(O)O | HXB2D (RT-K65R) | RT-K65R | CBMC | - | 3.5 ± 0.5 µM |
| O=C(NCc1ccc(F)cc1)c1nc(C2CCCCN2)[nH]c(=O)c1O | IIIB | - | MT-4 | 10% FBS | <1.46 µM |
| COc1cc(C[C@H]2C(=O)OC[C@@H]2Cc2ccc(OC)c(OC)c2)ccc1O | IIIB | - | H9 | - | <0.13 µM |
| CC(C)(C)NC(=O)[C@@H]1C[C@@H]2CCCC[C@@H]2N1C(=O)[C@@H](O)[C@H](Cc1ccc(O)cc1)NC(=O)[C@H](CC(N)=O)NC(=O)COc1cccc2ccccc12 | RF | - | MT-2 | - | 0.36 µM |
| CC(c1nc(C(=O)NCc2ccc(F)cc2)c(O)c(=O)[nH]1)N(C)C | IIIB | - | MT-4 | 10% FBS | <0.12 µM |
| Cc1cn([C@H]2C[C@H](N=[N+]=[N-])[C@@H](CO)O2)c(=O)[nH]c1=O | AZT-resistant (RT D67N K70R T215F K219Q) | RT-D67N K70N T215F K219Q | MT-2 | - | 0.36 µM |
| Cc1cn([C@H]2C[C@H](N=[N+]=[N-])[C@@H](CO)O2)c(=O)[nH]c1=O | BILA1906-resistant (PR V32I A71V) | - | C8166 | - | 0.006 µM |
| CC(C)[C@H](NC(=O)c1ccc2ccccc2n1)C(=O)N[C@@H](Cc1ccccc1)[C@H](O)CN1CC[C@@H](OCc2ccncc2)C[C@H]1C(=O)NC(C)(C)C | HXB2 | - | H9 | - | 0.001 µM |
| CC(=O)N[C@H]1[C@H]([C@H](OS(=O)(=O)O)[C@@H](COS(=O)(=O)O)OS(=O)(=O)O)O[C@@](O[C@H]2CC[C@@]3(C)C(=CC[C@H]4[C@@H]5CC[C@H]([C@H](C)CCCC(C)C)[C@@]5(C)CC[C@@H]43)C2)(C(=O)O)C[C@@H]1OS(=O)(=O)O | IIIB | - | H9 | - | 40 µM |
| COc1cc(C[C@@](O)(C(N)=O)[C@H](CO)Cc2ccc(OC)c(OC)c2)ccc1O | IIIB | - | H9 | - | <1.8 µM |
| O=c1[nH]cnc2c1ncn2[C@H]1CC[C@@H](CO)O1 | - | RT-K103N | MT-2 | - | 0.4 µM |
| CCN(C(=O)OCc1ccccc1)C1CCN(CCC(CO)(CN(C)S(=O)(=O)c2ccccc2)c2ccccc2)CC1 | YU-2 (M-tropic) | - | PBMC | - | <0.14 µM |
| Nc1ncnc2c1ncn2CCOCP(=O)(O)O | HXB2D | - | H9 | - | 1.2 µM |
| CCn1cc(C(=O)O)c(=O)c2cc(F)c(N3CCN(c4ccccc4OC)CC3)c(OC(F)F)c21 | IIIB | - | PBMC | - | 0.32 µM |

8 of the rows above, restated:

structure,strain,changes,cell line,setting,value
COc1cc(C[C@@](O)(C(N)=O)[C@H](CO)Cc2ccc(OC)c(OC)c2)ccc1O,IIIB,-,H9,-,<1.8 µM
COc1ccc(C[C@H]2COC(=O)[C@@H]2Cc2ccc(O[C@@H]3O[C@H](CO)[C@@H](O)[C@H](O)[C@H]3O)c(OC)c2)cc1OC,IIIB,-,H9,-,<5 µM
CC(=O)N[C@H]1[C@H]([C@H](OS(=O)(=O)O)[C@@H](COS(=O)(=O)O)OS(=O)(=O)O)O[C@@](OCCCCCCCCCCCCCCCC(=O)O)(C(=O)O)C[C@@H]1OS(=O)(=O)O,IIIB,-,H9,-,139 µM
Cc1cccc(C)c1OCC(=O)N[C@@H](Cc1ccccc1)[C@H](O)CN1CC[C@@H](Sc2ccncc2)C[C@H]1C(=O)NC(C)(C)C,BILA1906-resistant (PR V32I A71V),PR-V32I A71V,C8166,-,0.008 µM
CCN(C(=O)OCc1ccccc1)C1CCN(CCC(CO)(CN(C)S(=O)(=O)c2ccccc2)c2ccccc2)CC1,YU-2 (M-tropic),-,PBMC,-,<0.14 µM
CC(C)(C)NC(=O)[C@@H]1C[C@@H]2CCCC[C@@H]2CN1C[C@@H](O)[C@H](Cc1ccccc1)NC(=O)[C@H](CC(N)=O)NC(=O)c1ccc2ccccc2n1,ESP2-0,-,PBMC,-,0.005 µM
Nc1ncnc2c1ncn2CCOCP(=O)(O)O,HXB2D,-,H9,-,1.2 µM
S=C(NCCc1cccs1)Nc1ccc(Br)cn1,C140 Clinical isolate NRTI-resistant,RT-M41L M184V T215Y,PBMC,-,0.019 µM